PubChem BioAssay AID1259414 | Drosophila RNAi Screening Center, 2018

Test: 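Host factors increasing or decreasing Wolbachia levels in cultured fly cells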 (primary screen)
System: Drosophila JW18 cells infected with Wolbachia
Reagent: long dsRNA against Drosophila genes, 0.25 µg dsRNA per well of a 384-well plate
Time to read-out: 5 days
Challenge: cells persistently infected with Wolbachia before knock-down; no added drug
Read-out: 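Imaged fluorescence in situ signal for Wolbachia 23S rRNA per DAPI-counted host cell, given as a robust z-score within each plate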
Scale: Wolbachia per cell robust z: higher = more Wolbachia per host cell than the plate typical
Rule for the call: 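Active if absolute robust z reaches 1.5 in two or more of three replicates, leaving out multi- or no-target dsRNAs, genes unexpressed in JW18 and A1 wells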
The deposit covers about 24,000 reagents; below is a random part of those with a known target gene and a result. In the full data, about 1,210 (5%) were called active. 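Inactive calls also include excluded dsRNAs with several or no targets, genes unexpressed in JW18, and well A1, regardless of score.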 Names joined by + are all predicted targets of the reagent.

| target gene | DRSC id | Wolbachia per cell robust z, rep 1 | Wolbachia per cell robust z, rep 2 | Wolbachia per cell robust z, rep 3 | Call |
| --- | --- | --- | --- | --- | --- |
| Ids (Iduronate 2-sulfatase) | DRSC08222 | 1.23 | 0.877 | 1.32 | inactive |
| His2Av (Histone H2A variant) | DRSC16702 | -2.06 | 0.459 | -0.188 | inactive |
| RpS16 (Ribosomal protein S16) | DRSC04442 | 1.62 | 1.22 | 1.91 | active |
| RpS16 (Ribosomal protein S16) | DRSC29812 | 2.02 | 1.44 | 3.15 | active |
| spag (spaghetti) | DRSC04717 | 1.46 | -0.628 | 1.23 | inactive |
| Sik3 (Salt-inducible kinase 3) | DRSC06505 | -4.5 | 0.0572 | -0.473 | inactive |
| Sik3 (Salt-inducible kinase 3) | DRSC06771 | 0.364 | 0.117 | 0.0297 | inactive |
| Sik3 (Salt-inducible kinase 3) | DRSC29149 | 1.65 | 0.92 | 1.43 | inactive |
| Sik3 (Salt-inducible kinase 3) | DRSC29722 | 0.636 | -0.312 | 0.922 | inactive |
| Inx2 (Innexin 2) | DRSC18783 | 0.103 | 0.322 | -0.175 | inactive |
| Inx2 (Innexin 2) | DRSC24455 | -0.136 | -10.1 | -1.13 | inactive |
| CG31468 | DRSC13637 | 0.146 | 1.05 | 0.368 | inactive |
| chk (chaski) | DRSC04994 | 0.399 | 0.596 | 0.916 | inactive |
| Fcp1 (TFIIF-interacting CTD phosphatase) | DRSC04121 | -0.57 | -1.23 | -2.12 | inactive |
| Fcp1 (TFIIF-interacting CTD phosphatase) | DRSC26715 | -0.0623 | 1.25 | 1.05 | inactive |
| Polr2B (RNA polymerase II subunit B) | DRSC16831 | 3.6 | 3.26 | 1.12 | active |
| daw (dawdle) | DRSC00479 | -0.0698 | -0.574 | -0.533 | inactive |
| daw (dawdle) | DRSC24450 | 0.346 | -0.257 | -0.863 | inactive |
| daw (dawdle) | DRSC39007 | -3.49 | -0.165 | -5.32 | active |
| yellow-d | DRSC04589 | 0.966 | -1.13 | 0.617 | inactive |
| yellow-d | DRSC26933 | 0.287 | 0.158 | 1.15 | inactive |
| CG13231 | DRSC06351 | -1.14 | -3.55 | -0.505 | inactive |
| CG13231 | DRSC26554 | -4.56 | -1.68 | -1.74 | inactive |
| CG12911 | DRSC06226 | 0.0922 | -2.32 | 0.25 | inactive |
| CG12911 | DRSC27975 | -2.07 | -0.922 | -0.144 | inactive |
| betaNACtes2 (Nascent-associated complex beta-subunit-like, testis 2) | DRSC19792 | -0.36 | -1.05 | -1.46 | inactive |
| betaNACtes2 (Nascent-associated complex beta-subunit-like, testis 2) | DRSC41533 | -0.506 | 0.257 | -0.879 | inactive |
| plu (plutonium) | DRSC07665 | -0.534 | -0.418 | -1.92 | inactive |
| CG1927 | DRSC08146 | 0.259 | 0.928 | 1.5 | inactive |
| CG34448 | DRSC26596 | 0.414 | 1.09 | -0.305 | inactive |
| CG34448 | DRSC41472 | 0.433 | 0.13 | -0.882 | inactive |
| TbCMF46 | DRSC02221 | 0.445 | -1.04 | 0.82 | inactive |
| Klc (Kinesin light chain) | DRSC11203 | -9.13 | -4.23 | -1.09 | active |
| Klc (Kinesin light chain) | DRSC26363 | -0.825 | -0.375 | -0.89 | inactive |
| mmm (missing minor mitochondria) | DRSC10208 | 1.22 | 0.469 | -1.74 | inactive |
| CG14913 | DRSC02397 | 0.171 | 0.0391 | 1.06 | inactive |
| CG14913 | DRSC27967 | -1.42 | -2.02 | -1.56 | active |
| ZnT49B (Zinc transporter 49B) | DRSC07225 | -0.524 | 0.434 | -0.0443 | inactive |
| CG6195 | DRSC15989 | 0.721 | 0.571 | -0.127 | inactive |
| CG6195 | DRSC25477 | -2.24 | -0.978 | 0.0369 | inactive |
| CG12716 | DRSC19493 | -4.91 | -1.31 | -0.211 | inactive |
| CG12716 | DRSC28802 | -0.135 | -0.859 | -0.551 | inactive |
| Kpc1 (Kip1 ubiquitination-promoting complex subunit 1) | DRSC16107 | 0.413 | 0.846 | 2.02 | inactive |
| mt:ND6 (mitochondrial NADH-ubiquinone oxidoreductase chain 6) | DRSC21271 | -0.0546 | -1.52 | -0.0245 | inactive |
| mt:ND6 (mitochondrial NADH-ubiquinone oxidoreductase chain 6) | DRSC41543 | -0.292 | 0.147 | -2.74 | inactive |
| CG14767 | DRSC06500 | -0.656 | 0.13 | 0.461 | inactive |
| CG14767 | DRSC28418 | -0.49 | -0.906 | -0.158 | inactive |
| CG31406 | DRSC12777 | 1.03 | 0.569 | 0.394 | inactive |
| CG31406 | DRSC26169 | -0.323 | -0.466 | -0.814 | inactive |
| stnB + stnA | DRSC20969 | -0.379 | -0.249 | -0.307 | inactive |
| stnB + stnA | DRSC21112 | 1.01 | -0.539 | 0.915 | inactive |
| dup (double parked) | DRSC07088 | 3.28 | 3.49 | 2.61 | active |
| TrissinR (Trissin receptor) | DRSC02334 | -4.36 | -0.0794 | 0.606 | inactive |
| TrissinR (Trissin receptor) | DRSC02335 | -0.302 | -0.451 | 1.2 | inactive |
| TrissinR (Trissin receptor) | DRSC02336 | -8.05 | -0.686 | -0.335 | inactive |
| TrissinR (Trissin receptor) | DRSC25084 | 0.401 | -0.354 | 1.09 | inactive |
| TrissinR (Trissin receptor) | DRSC26283 | 0.401 | 0.0908 | -0.603 | inactive |
| Mettl5 + CG42374 | DRSC26961 | -0.672 | -1.16 | -0.146 | inactive |
| CG14006 | DRSC02338 | -1.86 | -1.46 | 1.04 | inactive |
| CG17234 | DRSC00490 | -0.0619 | 1.06 | 0.844 | inactive |
| kto (kohtalo) | DRSC10983 | -2.24 | -5.63 | 0.822 | active |
| ssh (slingshot) | DRSC16730 | 0.589 | -0.15 | 1.03 | inactive |
| ssh (slingshot) | DRSC28782 | 0.0772 | 1.23 | 0.385 | inactive |
| CG11168 | DRSC14292 | -0.214 | -0.35 | -1.06 | inactive |
| pho (pleiohomeotic) | DRSC17219 | -1.18 | -2.26 | 0.679 | inactive |
| pho (pleiohomeotic) | DRSC37622 | 0.351 | -1.14 | -0.525 | inactive |
| CG31380 | DRSC15688 | 0.394 | 0.842 | -1.21 | inactive |
| CG10953 | DRSC28267 | 0.00911 | -0.329 | 0.476 | inactive |
| sli (slit) | DRSC07684 | 0.683 | 0.798 | 0.971 | inactive |
| sli (slit) | DRSC22936 | -0.581 | 0.0991 | -0.713 | inactive |
| sli (slit) | DRSC29578 | 0.586 | 0.497 | 0.17 | inactive |
| CG42263 | DRSC40586 | 0.63 | -0.719 | -0.349 | inactive |
| Mitofilin | DRSC16742 | 0.651 | -0.218 | 1.07 | inactive |
| CG30172 | DRSC21519 | 0.864 | 0.731 | -0.344 | inactive |
| CG30172 | DRSC30069 | 0.085 | 0.352 | 1.15 | inactive |
| Bicra | DRSC14417 | -1.57 | -0.371 | 0.223 | inactive |
| Bicra | DRSC25127 | -0.48 | -0.235 | -1.88 | inactive |
| Stip1 (Stress induced phosphoprotein 1) | DRSC00756 | 0.675 | -2.7 | -4.67 | active |
| dsx (doublesex) | DRSC12649 | -0.827 | -0.277 | -4.24 | inactive |
| dsx (doublesex) | DRSC16934 | 0.762 | -0.131 | 0.626 | inactive |
| dsx (doublesex) | DRSC21495 | -0.21 | 0.549 | 0.295 | inactive |
| dsx (doublesex) | DRSC26707 | -0.127 | 0.192 | -0.0478 | inactive |
| dsx (doublesex) | DRSC40763 | -2.79 | 0.27 | 0.3 | inactive |
| CG31797 | DRSC02476 | 1.76 | 1.59 | 0.0525 | inactive |
| CG31797 | DRSC02477 | 0.476 | 1.42 | 1.34 | inactive |
| beat-VII (beaten path VII) | DRSC13780 | -0.0159 | -0.109 | -0.0914 | inactive |
| beat-VII (beaten path VII) | DRSC14743 | -2.35 | 0.456 | 0.515 | inactive |
| beat-VII (beaten path VII) | DRSC22825 | -0.886 | -1.28 | -0.399 | inactive |

Targets listed so far whose gene name starts with S or s:
| target gene | DRSC id | Wolbachia per cell robust z, rep 1 | Wolbachia per cell robust z, rep 2 | Wolbachia per cell robust z, rep 3 | Call |
| --- | --- | --- | --- | --- | --- |
| spag (spaghetti) | DRSC04717 | 1.46 | -0.628 | 1.23 | inactive |
| Sik3 (Salt-inducible kinase 3) | DRSC06505 | -4.5 | 0.0572 | -0.473 | inactive |
| Sik3 (Salt-inducible kinase 3) | DRSC06771 | 0.364 | 0.117 | 0.0297 | inactive |
| Sik3 (Salt-inducible kinase 3) | DRSC29149 | 1.65 | 0.92 | 1.43 | inactive |
| Sik3 (Salt-inducible kinase 3) | DRSC29722 | 0.636 | -0.312 | 0.922 | inactive |
| stnB + stnA | DRSC20969 | -0.379 | -0.249 | -0.307 | inactive |
| stnB + stnA | DRSC21112 | 1.01 | -0.539 | 0.915 | inactive |
| ssh (slingshot) | DRSC16730 | 0.589 | -0.15 | 1.03 | inactive |
| ssh (slingshot) | DRSC28782 | 0.0772 | 1.23 | 0.385 | inactive |
| sli (slit) | DRSC07684 | 0.683 | 0.798 | 0.971 | inactive |
| sli (slit) | DRSC22936 | -0.581 | 0.0991 | -0.713 | inactive |
| sli (slit) | DRSC29578 | 0.586 | 0.497 | 0.17 | inactive |
| Stip1 (Stress induced phosphoprotein 1) | DRSC00756 | 0.675 | -2.7 | -4.67 | active |
